The data set in a line: staining test on pigskin. Also noted: species or system pig; key to Staining: +: tends to stain certain surfaces; −: do not stain. Particulars: for Staining Results: about 10 μL on pigskin, about 24 hours, room temperature; for Staining: summary Table 14.

On to `O=Cc1cccc(C=O)c1` [IPA, isophthalaldehyde, reference compound], for which the Staining result is “−”. In addition, the “Staining Results” value (0.20%) was “Non-Staining”.

As to `O=Cc1ccccc1C=O` [OPA, phthalaldehyde, reference compound], the Staining result is “+”. The “Staining Results” value (0.14%) is listed as “Dark Staining”.

`O=Cc1ccc(C=O)cc1` [TPA, terephthalaldehyde, reference compound]: the Staining result is on record as “−”.

Source of the values: patent US20050171215A1, “Germicidal compositions containing halogenated phthalaldehyes, and methods of using such compositions for disinfection or sterilization” (Ethicon, Inc., priority 2004, published 2005).
